Tested on: P. falciparum
Assay: In vitro parasite growth inhibition, SYBR Green I-based fluorescence assay for parasite nucleic acid
Conditions: read-out: In vitro growth inhibitory IC50; 3 days culture

Which IC50 does the source give for `CCCCN(CC)C(=O)c1cc2cc3ccc(C)cc3nc2o1` here?
The IC50 was 9 µM.

Source: US20230346797A1, “INHIBITORS OF THE PLASMODIAL SURFACE ANION CHANNEL AS ANTIMALARIALS” (The United States of America,as represented by the …, priority 2008, published 2023)
